Pooled drug test results. Numbers come from NIAID ChemDB, via PubChem.

All rows: toxicity to cultured cells; cells: PBMC; measure: CC50

a–b is a range or a potency band.

[N-]=[N+]=N[C@H]1C[C@H](CO)O[C@@H]1n1cc(F)c(N)nc1=O ; read by: trypan blue ; value: >100 µM
CNc1ncnc2c1ncn2[C@@H]1O[C@H](CO)C[C@@H]1F ; value: >80 µM
Cc1cn([C@@H]2CC[C@H](COC(=O)CCCCCCCCC(=O)OC[C@H]3O[C@@H](n4cc(C)c(=O)[nH]c4=O)C[C@@H]3F)O2)c(=O)[nH]c1=O ; value: >1 µM
Cc1cnc(SCCN(C)C)nc1-c1ccc(-c2nc(SCCN(C)C)ncc2C)s1 ; value: 10 µM
NC(=O)c1cn([C@@H]2CS[C@H](CO)O2)cn1 ; value: >100 µM
Cc1cc(NC(=O)NCCc2ccc3c(n2)NCCC3)on1 ; value: 50 µM
CN1c2c(-c3ccccc3)nn(CC(=O)N/N=C/c3ccc(Cl)cc3Cl)c2-c2ccccc2S1(=O)=O ; value: >100 µM
CN1CCN(CCSc2nccc(-c3cccs3)n2)CC1 ; value: 100 µM
Nc1ccn([C@@H]2C=C(F)[C@H](CO)O2)c(=O)n1 ; value: >100 µM
Cc1c(Cl)ccc2cc(/C=C/C(=O)c3ccccc3Br)c(Cl)nc12 ; read by: MTT ; value: 20.01 µM
O=C(NCCc1ccc2c(n1)NCCC2)Nc1cccc(Cl)c1 ; value: 3.5 µM
CC(Cc1nc(-c2ccc(O)c(O)c2)cs1)n1cc(Cl)cn1 ; read by: trypan blue ; value: 30 µM
CCCCCCCC/C=C\CCCCCCCCOP(=O)(N[C@@H](C)C(=O)OC)OC[C@@H]1OC[C@H](n2cc(C)c(=O)[nH]c2=O)O1 ; read by: MTT ; value: 31.3 µM
CN(C)CCSc1cccc(-c2cc(-c3cccs3)nc(SCCN(C)C)n2)c1 ; value: 10 µM
COC(=O)c1ccc(NC(=O)NCCc2ccc3c(n2)NCCC3)cc1 ; value: 50 µM
NCC(NC(=O)c1ccc(-c2ccc3c(c2)OCO3)[nH]1)c1ncc(CO)s1 ; read by: MTS ; value: 61.3 µM
O=C(NCCc1ccc2c(n1)NCCC2)Nc1ccc(N2CCOCC2)nc1 ; value: 50 µM
COC(=O)[C@H](C)NP(=O)(OC[C@@H]1OC[C@H](n2cc(C)c(=O)[nH]c2=O)O1)Oc1ccc(C)cc1 ; read by: MTT ; value: 74.3 µM
O=C(O)CN(CCCN(CCN(CC(=O)O)CC(=O)O)Cc1cnc2c(O)cccc2c1)CC(=O)O ; read by: MTT ; value: >50 µM
Cc1cn([C@H]2C=C[C@@H](COC(=O)NCCC3=CCCCC3)O2)c(=O)[nH]c1=O ; read by: tetrazolium ; value: >100 µM
Cc1cn([C@@H]2CC[C@H](COC(=O)CCCCCCCCC(=O)OC[C@H]3O[C@@H](n4cc(C)c(=O)[nH]c4=O)C[C@@H]3N=[N+]=[N-])O2)c(=O)[nH]c1=O ; value: >1 µM
C#Cc1cnc(OC(=O)c2ccccc2)nc1OC(=O)c1ccccc1 ; value: >100 µM
COC(=O)[C@H](NP(=O)(OC[C@@H]1OC[C@H](n2cc(C)c(=O)[nH]c2=O)O1)Oc1ccccc1)C(C)C ; read by: MTT ; value: >100 µM
CCOCc1cn([C@H]2C=C[C@@H](CO)O2)c(=O)[nH]c1=O ; value: 54 µM
Cc1c(Cl)ccc2cc(/C=C/c3csc(Cl)c3)c(Cl)nc12 ; read by: MTT ; value: 24.8 µM
CCCc1cc(=O)oc2c3c(c4c(c12)OC(C)(C)CC4)O[C@@H](C)[C@H](C)[C@@H]3O ; value: 10–20 µM
Nc1ncnc2c1ncn2[C@H]1O[C@H](CO)[C@@H](F)[C@@H]1F ; value: >100 µM
CCOC(=O)[C@H](C)NP(=O)(OC[C@@H]1OC[C@H](n2cnc3c(Cl)nc(N)nc32)O1)Oc1ccccc1 ; read by: MTT ; value: >100 µM
CN(C)CCNc1nc(-c2cc3ccccc3s2)c2ccccc2n1 ; value: 100 µM
CC(=O)O[C@@H]1[C@@H](OC(C)=O)[C@H](C)O[C@@H]2Oc3[nH]c(=O)[nH]c(=O)c3S[C@@H]21 ; read by: MTT ; value: 70 µM
Cc1c(Cl)ccc2cc(/C=C/C(=O)c3ccc(Cl)cc3)c(Cl)nc12 ; read by: MTT ; value: 22.99 µM
COC(=O)[C@H](C)NP(=O)(OC[C@@H]1OC[C@H](n2cc(C)c(=O)[nH]c2=O)O1)Oc1ccc(Cl)cc1Cl ; read by: MTT ; value: >100 µM
Nc1nc(N)c2ncn([C@H]3CO[C@@H](CO)O3)c2n1 ; read by: MTT ; value: >100 µM
Cc1cn([C@H]2C=C[C@@H](COC(=O)NCCc3ccc(Br)cc3)O2)c(=O)[nH]c1=O ; read by: tetrazolium ; value: >100 µM
COc1ccc2nc(Cl)c(/C=C/C(=O)c3cc(C)oc3C)cc2c1 ; read by: MTS ; value: >100 µM
CN1c2c(-c3ccccc3)nn(CC(=O)N/N=C/c3ccc(Cl)c(Cl)c3)c2-c2ccccc2S1(=O)=O ; value: 38 µM
O=C(NCCc1ccc2c(n1)NCCC2)Nc1ccsc1 ; value: 50 µM
CN1CCN(c2nc(-c3cccs3)cc(-c3cc4ccccc4s3)n2)CC1 ; value: >100 µM
NC(=O)CCNC(=O)c1ccccc1SCc1ccc(OP2(=O)OCc3ccccc3O2)cc1 ; read by: XTT ; value: >50 µM
Cc1c(Cl)ccc2cc(/C=C/C(=O)c3ccc(Br)cc3)c(Cl)nc12 ; read by: MTT ; value: 32.09 µM
Cc1cn([C@H]2CO[C@@H](COP(=O)(N[C@@H](C)C(=O)OCc3ccccc3)Oc3ccc(Br)cc3)O2)c(=O)[nH]c1=O ; read by: MTT ; value: >100 µM
Cc1nc(CCCCCCC(=O)c2ccccc2)n2nc(NCCCCCCN)ccc12 ; value: >10 µM
CC(=O)OC[C@H]1O[C@@H]2Oc3[nH]c(=O)[nH]c(=O)c3S[C@@H]2[C@@H](OC(C)=O)[C@H]1OC(C)=O ; read by: MTT ; value: >100 µM
CCNC(=O)NC(=O)C(C)OC(=O)c1c2c(nc3ccccc13)/C(=C\c1cccc(OC)c1OC)CC2 ; value: >100 µM
Nc1ncnc2c1ncn2[C@@H]1O[C@H](COC2(c3ccccc3)c3ccccc3Oc3ccccc32)[C@@H](OC2(c3ccccc3)c3ccccc3Oc3ccccc32)[C@H]1OC1CCCCO1 ; value: >100 µM
C#Cc1cnc(C(=O)c2ccccc2)nc1C(=O)c1ccccc1 ; value: ≥100 µM
Cc1c(Cl)ccc2cc(/C=C/c3sccc3Br)c(Cl)nc12 ; read by: MTT ; value: 47.9 µM
OC[C@@H]1C[C@H](F)[C@H](n2cnc3c(NOCc4ccccc4)ncnc32)O1 ; value: >80 µM
CCCCCCCCCCCCCCCCOCCCOP(=O)(O)OC[C@@H]1OC[C@H](n2cc(C)c(=O)[nH]c2=O)O1 ; read by: MTT ; value: 66.19 µM
Cc1cc(NC(=O)NCCc2ccc3c(n2)NCCC3)c(-c2ccccc2)o1 ; value: 28 µM
COC(=O)C(C)(C)NP(=O)(OC[C@@H]1OC[C@H](n2cc(C)c(=O)[nH]c2=O)O1)Oc1cccc2ccccc12 ; read by: MTT ; value: >100 µM
NC(N)=NC(=O)c1ccc(N2CCCCCC2)nc1 ; read by: ATP / luminescence ; value: 96 µM
Cn1c2c(c(=O)n(C)c1=O)S[C@@H]1[C@H](O2)O[C@H](COc2ccccc2)[C@@H](OCc2ccccc2)[C@@H]1OCc1ccccc1 ; read by: MTT ; value: >100 µM
C=Cn1cc(C(=O)O)c(=O)c2cc(N)c(N3CCN(c4ccccn4)CC3)cc21 ; value: 1.14 µM
Nc1nc(NC2CC2)c2ncn([C@H]3CO[C@@H](CO)O3)c2n1 ; read by: MTT ; value: >100 µM
CN1CCN(CCSc2nc(-c3cc4ccccc4s3)c3ccccc3n2)CC1 ; value: 10 µM
Nc1ccn([C@H]2C=C[C@@H](CO)O2)c(=O)n1 ; value: 65 µM
Cc1nc(C(CN)NC(=O)c2ccc(-c3ccc(F)c(F)c3)[nH]2)sc1CO ; read by: MTS ; value: 47.1 µM
Oc1ccc(/C=C/c2cc(O)cc(O)c2)cc1 ; read by: MTT ; value: >10 µM
Cc1cn([C@H]2C=C[C@@H](COC(=O)NCCc3ccccc3F)O2)c(=O)[nH]c1=O ; read by: tetrazolium ; value: >100 µM
Nc1ccn([C@H]2CO[C@@H](CO)S2)c(=O)n1 ; read by: MTT ; value: 520 µM
Cc1ccc(C[C@@H](C)[C@@H](C)Cc2ccc(C)c(C)c2)cc1C ; read by: MTS ; value: 60 µM
Cc1cn([C@H]2C=C[C@@H](COC(=O)NCCc3cccs3)O2)c(=O)[nH]c1=O ; read by: tetrazolium ; value: >100 µM
OC[C@@H]1C[C@H](F)[C@H](n2cnc3c(Cl)ncnc32)O1 ; value: >80 µM
Nc1ccn([C@@H]2C=C[C@H](CO)O2)c(=O)n1 ; value: 65 µM
Cn1c2c(c(=O)n(C)c1=O)S[C@H]1[C@@H](O2)O[C@H](CO)[C@@H](O)[C@@H]1O ; read by: MTT ; value: >100 µM
CN(C)CCSc1nccc(-c2ccc(-c3ccnc(SCCN(C)C)n3)s2)n1 ; value: 10 µM
CCCCc1cn(-c2cccc(S(=O)(=O)Nc3cccc4cnccc34)c2)nn1 ; read by: fluorescence ; conditions: 24 h ; value: 219 µM
Cc1cn([C@H]2C=C[C@@H](CO)O2)c(=O)[nH]c1=O ; value: 42 µM
C=C1CN(S(=O)(=O)c2ccc(C)cc2)CCCN(Cc2ccccc2)CCCN(S(=O)(=O)c2ccc(C)cc2)C1 ; value: 73 µM
CN1c2c(-c3ccccc3)nn(CC(=O)N/N=C/c3ccccc3[N+](=O)[O-])c2-c2ccccc2S1(=O)=O ; value: >100 µM
Nc1ccn([C@@H]2C=C(F)[C@H](CO)O2)c(=O)n1 ; value: 86.9 µM
CC(C)(C)C(=O)OCOP(=O)(CC[C@H]1O[C@@H](n2cnc3c(=O)[nH]c(N)nc32)[C@](C)(F)[C@@H]1O)OCOC(=O)C(C)(C)C ; value: >100 µM
COc1ccc(CCNC(=O)OC[C@@H]2C=C[C@H](n3cc(C)c(=O)[nH]c3=O)O2)cc1 ; read by: tetrazolium ; value: >100 µM
NCC(NC(=O)c1ccc(-c2cc(F)c(Cl)c(F)c2)[nH]1)c1nc(CO)cs1 ; read by: MTT ; value: 7.6 µM
O=C(NCCc1ccc2c(n1)NCCC2)Nc1ccc2c(c1)OCO2 ; value: 50 µM
Cc1ccc2nc(Cl)c(/C=C/C(=O)c3ccc[nH]3)cc2c1 ; read by: MTS ; value: 19.9 µM
OCCN(CCO)CCOc1nc(-c2cccs2)cc(-c2cc3ccccc3s2)n1 ; value: 100 µM
CN1CCN(CCSc2nccc(-c3ccc(-c4ccnc(SCCN5CCN(C)CC5)n4)s3)n2)CC1 ; value: 100 µM
COc1ccc2nc(Cl)c(/C=C/C(=O)c3cccc4ccccc34)cc2c1 ; read by: MTS ; value: 23.2 µM
COC(=O)CNP(=O)(OC[C@@H]1OC[C@H](n2cc(C)c(=O)[nH]c2=O)O1)Oc1ccccc1 ; read by: MTT ; value: >100 µM
O=C(CCc1ccc2c(n1)NCCC2)Nc1ccc(Cl)c(Cl)c1 ; value: 10 µM
Cc1nc(CCCCCCC(=O)c2ccccc2)n2nc(NCCCCCCCCCCN)ccc12 ; value: >10 µM
C[C@]1(CO)CO[C@@H](n2cnc3c(=O)[nH]c(F)nc32)C1 ; value: 1 µM
Nc1ccn([C@H]2S[C@@H](CO)C=C2F)c(=O)n1 ; value: >100 µM
CN(C)CCSc1nccc(-c2nccs2)n1 ; value: 100 µM
COc1ccc2nc(Cl)c(/C=C/C(=O)c3cc4ccccc4o3)cc2c1 ; read by: MTS ; value: 3.4 µM
CONc1ncnc2c1ncn2[C@@H]1O[C@H](CO)C[C@@H]1F ; value: >80 µM
C#Cc1cnc(OC)nc1OC ; value: >100 µM
Cc1c(-c2c([C@H](OC(C)(C)C)C(=O)O)cnc3ccccc23)cc(F)c2c1CCCO2 ; value: 116 µM
CN(C)CCSc1cccc(-c2cc(-c3cccc(SCCN(C)C)c3)nc(SCCN(C)C)n2)c1 ; value: 10 µM
O=C(NCCc1ccc2c(n1)NCCC2)Nc1ccc2c(c1)CCC2 ; value: 3.8 µM
Cc1cnc(SCCN2CCN(C)CC2)nc1-c1cc2ccccc2s1 ; value: 10 µM
Cc1cnc(SCCN2CCN(C)CC2)nc1-c1cc2ccccc2s1 ; value: 10 µM

8 of the rows above, restated:

SMILES	read by	conditions	value
CN(C)CCSc1cccc(-c2cc(-c3cccc(SCCN(C)C)c3)nc(SCCN(C)C)n2)c1	-	-	10 µM
Cc1c(Cl)ccc2cc(/C=C/c3sccc3Br)c(Cl)nc12	MTT	-	47.9 µM
Nc1ccn([C@H]2CO[C@@H](CO)S2)c(=O)n1	MTT	-	520 µM
CN1CCN(CCSc2nccc(-c3ccc(-c4ccnc(SCCN5CCN(C)CC5)n4)s3)n2)CC1	-	-	100 µM
Cc1cnc(SCCN(C)C)nc1-c1ccc(-c2nc(SCCN(C)C)ncc2C)s1	-	-	10 µM
NCC(NC(=O)c1ccc(-c2cc(F)c(Cl)c(F)c2)[nH]1)c1nc(CO)cs1	MTT	-	7.6 µM
Cc1c(Cl)ccc2cc(/C=C/C(=O)c3ccc(Br)cc3)c(Cl)nc12	MTT	-	32.09 µM
O=C(O)CN(CCCN(CCN(CC(=O)O)CC(=O)O)Cc1cnc2c(O)cccc2c1)CC(=O)O	MTT	-	>50 µM

Lines come from different laboratories, so protocols vary. Blank or dashed fields: not listed here. CCn is the concentration with n% toxicity to the cells.